# Data published in publication PMC5025708, “Structural Basis of Host Autophagy-related Protein 8 (ATG8) Binding by the Irish Potato Famine Pathogen Effector Protein PexRD54*^([image sbox.jpg])^♦” (The Journal of Biological Chemistry, 2016).
# T1: ATG8CL-GST-His fusion protein (potato, UniProt M1C146 1-119)
# T1 construct: source: E. coli, purified (Ni-NTA, gel filtration)
# T1 sequence: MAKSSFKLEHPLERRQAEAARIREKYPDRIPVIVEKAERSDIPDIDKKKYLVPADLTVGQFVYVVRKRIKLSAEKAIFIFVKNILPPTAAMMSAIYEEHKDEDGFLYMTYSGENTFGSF
# B1: ATG8CL (potato), expressed from pOPINF (natural protein)
# chain: MAKSSFKLEHPLERRQAEAARIREKYPDRIPVIVEKAERSDIPDIDKKKYLVPADLTVGQFVYVVRKRIKLSAEKAIFIFVKNILPPTAAMMSAIYEEHKDEDGFLYMTYSGENTFGSF
# notes: also called pOPINF-ATG8CL
# Experiments:
# [1] = molecular target: T1, ATG8CL-GST-His fusion protein; experiment: peptide or protein array
# [2] = molecular target: PexRD54^Δ218 (Arg-219 to Val-381) (Phytophthora infestans, UniProt D0NBE6 219-381); experiment: ITC
# [3] = molecular target: B1; experiment: ITC
binder,measurement,setting,value
"KPLDFDFEIV (anchored to the membrane at the N terminus, free C terminus) [10-mer peptide of PexRD54 (Lys-372–Val-381) with Phe at position 378]",binding result,[1],binds
B1,Kd,[2],69 nM
PexRD54^Δ298 (Ser-299 to Val-381) (domain or fragment) SESSHKTMADVWLKARETPEEVFRILRLAEKQTAAADDNRMLNLWLRYTQTYRDKIDKNAFSDAEALQFFRKAKPLDFDWEIV,Kd,[3],39 nM
